This note sets out measurements from article PMC12945441.

As usually defined, the IC50 is the concentration that gives 50% inhibition. Lower therefore signals inhibition by little substance.

The experiment addresses SARS-CoV-2 Wuhan-Hu-1 receptor-binding domain (SARS-CoV-2 Wuhan-Hu-1). The experiment in a line: ELISA. Background: ELISA stands for enzyme-linked immunosorbent assay.

With S2E12, the half-inhibitory concentration (IC50) amounted to 0.0221 µg/mL.
